Data source: PubChem BioAssay AID504761 (Drosophila RNAi Screening Center, 2011)
Screen: 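Fly genes whose silencing reduces dengue virus type 2 infection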 (primary screen). System: D.Mel-2 cells from Drosophila. Reagents: long dsRNA against Drosophila genes. Challenge: infection with dengue virus type 2; dose and infection time not stated. Measurement: 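Per well on two replicate plates, imaging gave the percent of cells positive for viral envelope protein, ranked by infection, and a nuclear count of cells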. Reading the numbers: infection score: higher = more virus-infected cells; cell count: higher = more cells in the well. Call rule: 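Very low infection ranking in both replicate wells (chance probability at most 0.065), then a retest showing infection dropped 1.5-fold or more at p below 0.05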. Calls: active = confirmed: knock-down lowers infection; inactive = not picked or not confirmed.
The screen tested about 22,000 reagents; below is a random part of those with a known target gene and a result. In the full data, 116 (0.52%) got an active call. 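Calls depend on retest data that are not deposited; infection was ranked per plate without normalising between plates; the unit of the infection score is not given.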 The raw values are shown without normalisation. A plus sign joins genes that one reagent is predicted to hit. Not given: the amount of reagent, the time to read-out.

predicted target | dsRNA | infection score, replicate 1 | infection score, replicate 2 | cell count, replicate 1 | cell count, replicate 2 | Call
Muc96D (GeneID 318737) | DRSC23213 | 1.09 | 10.2 | 6436 | 6707 | inactive
Muc96D (GeneID 318737) | DRSC28500 | 15.4 | 15.8 | 5529 | 5078 | inactive
Tbcc (GeneID 319048) | DRSC00223 | 3.29 | 2.24 | 5986 | 2639 | inactive
Tbcc (GeneID 319048) | DRSC30109 | 4.94 | 6.89 | 6236 | 5025 | inactive
Ktch (GeneID 43681) | DRSC15094 | 9.1 | 3.41 | 5843 | 7370 | inactive
Ktch (GeneID 43681) | DRSC25973 | 1.99 | 3.95 | 6386 | 6423 | inactive
jagn (GeneID 40714) | DRSC12152 | 10.1 | 18.8 | 6348 | 5596 | inactive
Ts (GeneID 33499) | DRSC00795 | 1.62 | 3.97 | 6315 | 6373 | inactive
Ts (GeneID 33499) | DRSC22168 | 2.98 | 1.22 | 4569 | 5174 | inactive
CG5327 (GeneID 37138) | DRSC06930 | 3.19 | 2.52 | 5984 | 5724 | inactive
Nhe2 (GeneID 35376) | DRSC03172 | – | 5.75 | 652 | 6677 | inactive
Nhe2 (GeneID 35376) | DRSC03377 | 13.6 | 8.09 | 3693 | 6194 | inactive
CG7248 (GeneID 39356) | DRSC10788 | 3.39 | 4.49 | 5897 | 6386 | inactive
Or65a (GeneID 318011) | DRSC08808 | 2.2 | 0.81 | 6228 | 5526 | inactive
CG15676 (GeneID 37472) | DRSC04267 | 7.35 | 6.57 | 6464 | 6497 | inactive
CG15676 (GeneID 37472) | DRSC27015 | 4.23 | 30.1 | 6045 | 5747 | inactive
CG7714 (GeneID 42250) | DRSC16300 | 15.5 | 5.5 | 2609 | 5779 | inactive
CG7714 (GeneID 42250) | DRSC24753 | 4.52 | 5.72 | 6610 | 6870 | inactive
DIP-epsilon (GeneID 7354433) | DRSC00932 | 2.22 | 3.33 | 6035 | 6906 | inactive
DIP-epsilon (GeneID 7354433) | DRSC02313 | 4.59 | 7.22 | 6630 | 6430 | inactive
DIP-epsilon (GeneID 7354433) | DRSC26835 | 13.9 | 23.3 | 6280 | 6170 | inactive
Cpr92A (GeneID 42333) | DRSC16000 | 2.28 | 9.96 | 6459 | 5973 | inactive
Cpr92A (GeneID 42333) | DRSC25340 | 10.8 | 4.26 | 5577 | 6637 | inactive
Ubc6 (GeneID 40610) | DRSC12370 | 29.5 | 20.8 | 5183 | 5612 | inactive
Ubc6 (GeneID 40610) | DRSC28862 | – | 3.93 | 385 | 737 | inactive
Tudor-SN (GeneID 38045) | DRSC08581 | 4.73 | 6.96 | 5922 | 6074 | inactive
Sec61gamma (GeneID 32968) | DRSC19570 | 11.1 | 5.12 | 5760 | 6464 | inactive
Sec61gamma (GeneID 32968) | DRSC25563 | 1.72 | 4.3 | 6470 | 6367 | inactive
pippin (GeneID 37770) | DRSC04489 | 10.6 | 28.1 | 6646 | 2100 | inactive
CG10570 + CG42502 | DRSC28566 | 10.7 | 7.3 | 3878 | 2548 | inactive
wol (GeneID 34134) | DRSC03077 | 4.51 | 0.74 | 6539 | 6509 | inactive
wol (GeneID 34134) | DRSC27227 | 11.5 | 3.52 | 6817 | 6051 | inactive
kek3 (GeneID 34912) | DRSC03553 | 2.42 | 10.9 | 6233 | 6672 | inactive
kek3 (GeneID 34912) | DRSC22830 | 2.26 | 0.79 | 6190 | 6858 | inactive
kek3 (GeneID 34912) | DRSC24250 | 4.73 | 4.5 | 5754 | 5868 | inactive
eIF3e (GeneID 39877) | DRSC11199 | 2.12 | 4.28 | 3827 | 4487 | inactive
ATPsyngamma (GeneID 43507) | DRSC14094 | 2.75 | 5.7 | 1452 | 1210 | inactive
CG4393 (GeneID 42764) | DRSC15573 | 1.06 | 10.1 | 6677 | 4256 | inactive

The list goes on (3 carried over from the part before).
predicted target | dsRNA | infection score, replicate 1 | infection score, replicate 2 | cell count, replicate 1 | cell count, replicate 2 | Call
eIF3e (GeneID 39877) | DRSC11199 | 2.12 | 4.28 | 3827 | 4487 | inactive
ATPsyngamma (GeneID 43507) | DRSC14094 | 2.75 | 5.7 | 1452 | 1210 | inactive
CG4393 (GeneID 42764) | DRSC15573 | 1.06 | 10.1 | 6677 | 4256 | inactive
CheA29a (GeneID 246659) | DRSC21486 | 3.3 | 4.67 | 5872 | 5830 | inactive
CG8607 (GeneID 38805) | DRSC11012 | 3.45 | 2.65 | 6433 | 6110 | inactive
CG5335 (GeneID 37140) | DRSC06931 | 20.5 | 8.73 | 5837 | 2875 | inactive
CG5335 (GeneID 37140) | DRSC26565 | 1.95 | 1.59 | 5638 | 5848 | inactive
Hex-t1 (GeneID 117364) | DRSC16701 | 7.76 | 9.96 | 5321 | 3404 | inactive
Hex-t1 (GeneID 117364) | DRSC26127 | 16.2 | 1.71 | 6162 | 6375 | inactive
Ag5r (GeneID 44631) | DRSC19327 | 4.05 | 2.23 | 6019 | 6022 | inactive
Ag5r (GeneID 44631) | DRSC29999 | 8.48 | 8.25 | 6047 | 6433 | inactive
CycH (GeneID 40429) | DRSC11861 | 2.45 | 7.07 | 6745 | 6254 | inactive
CycH (GeneID 40429) | DRSC21308 | 3.44 | 3.97 | 5434 | 6369 | inactive
CG13862 (GeneID 42610) | DRSC14712 | 13.9 | 2.63 | 4018 | 7044 | inactive
mEFTs (GeneID 35060) | DRSC02953 | 11 | 9.8 | 6308 | 6193 | inactive
mEFTs (GeneID 35060) | DRSC30019 | 2.8 | 18.7 | 6187 | 5486 | inactive
Vha16-3 (GeneID 317846) | DRSC10872 | 1.84 | 2.68 | 6291 | 6429 | inactive
Vha16-3 (GeneID 317846) | DRSC25513 | 5.17 | 0.38 | 5162 | 6240 | inactive
sei (GeneID 37843) | DRSC04713 | 17.5 | 14.2 | 6139 | 5928 | inactive
sei (GeneID 37843) | DRSC29359 | 11.3 | 6.01 | 5443 | 5061 | inactive
CG32813 (GeneID 31089) | DRSC17948 | 1.19 | 5.4 | 6454 | 5551 | inactive
CG32813 (GeneID 31089) | DRSC24734 | 6.32 | 11.5 | 6776 | 5355 | inactive
Sbat (GeneID 319043) | DRSC00160 | 5.57 | 4.73 | 6427 | 5797 | inactive
